A mixed list of measured activities; the numbers were collected in NIAID ChemDB.

Common to all: toxicity to cultured cells; cells: VERO; read-out: CC50

Lines come from different laboratories, so protocols vary.

structure | value
CC(=O)OC[C@H]1O[C@H](OC(=O)NS(=O)(=O)OC[C@H]2O[C@@H](n3ccc(=O)[nH]c3=O)[C@H](OC(C)C)[C@@H]2OC(C)C)[C@@H](OC(C)=O)[C@@H](OC(C)=O)[C@@H]1OC(C)=O | 100 µg/mL
C(=C\c1ccccc1)/CO/N=C(/Cn1ccnc1)c1ccccc1 | 12 µg/mL
O=C(c1ccccc1)c1nc2cc(Cl)ccc2s1 | 31 µg/mL
CC(C)O[C@@H]1[C@H](OC(C)C)[C@@H](COS(=O)(=O)NC(=O)O[C@@H]2C[C@@H](OC(=O)c3ccccc3)C[C@@H](COC(=O)c3ccccc3)O2)O[C@H]1n1ccc(=O)[nH]c1=O | 200 µg/mL
CSc1nsc(-c2ccc(Cl)cc2Cl)c1C#N | 8 µM
Oc1ccccc1Cc1nc2ccccc2s1 | 62 µg/mL
CSc1nsc(-c2ccc(C(F)(F)F)cc2)c1C#N | 14 µM
OC(c1ccccc1)c1nc2cc(Cl)ccc2o1 | 62 µg/mL
N#Cc1csnc1-c1ccccc1 | 100 µM
Fc1ccc(/C(Cn2ccnc2)=N/OC/C=C/c2ccccc2)cc1 | 12 µg/mL
CSc1nsc(-c2ccc(OS(=O)(=O)c3ccc(C)cc3)cc2)c1C#N | 25 µM
c1ccc(CO/N=C(/Cn2ccnc2)c2ccccc2)cc1 | 1 µg/mL
CSc1nsc(-c2ccccn2)c1C#N | 50 µM
Clc1ccc(/C(Cn2ccnc2)=N/OCc2ccccc2)cc1 | 64 µg/mL
O=C(NS(=O)(=O)OC[C@H]1O[C@@H](n2ccc(=O)[nH]c2=O)[C@H](O)[C@@H]1O)O[C@H]1O[C@H](COC(=O)c2ccccc2)[C@@H](OC(=O)c2ccccc2)[C@H](OC(=O)c2ccccc2)[C@H]1OC(=O)c1ccccc1 | 192 µg/mL
Clc1ccc(/C(Cn2ccnc2)=N/OCc2ccccc2)c(Cl)c1 | 2 µg/mL
CC(=O)O[C@H]1C[C@H](n2cc(C)c(=O)[nH]c2=O)O[C@@H]1COS(=O)(=O)NC(=O)O[C@H]1O[C@H](COC(=O)c2ccccc2)[C@@H](OC(=O)c2ccccc2)[C@H](OC(=O)c2ccccc2)[C@H]1OC(=O)c1ccccc1 | 150 µg/mL
c1ccc(CO/N=C(\Cn2ccnc2)c2ccccc2)cc1 | 8 µg/mL
OC(c1ccccc1)c1nc2ccccc2o1 | 125 µg/mL

Repeating the first 2 entries:

structure,value
CC(=O)OC[C@H]1O[C@H](OC(=O)NS(=O)(=O)OC[C@H]2O[C@@H](n3ccc(=O)[nH]c3=O)[C@H](OC(C)C)[C@@H]2OC(C)C)[C@@H](OC(C)=O)[C@@H](OC(C)=O)[C@@H]1OC(C)=O,100 µg/mL
C(=C\c1ccccc1)/CO/N=C(/Cn1ccnc1)c1ccccc1,12 µg/mL

CCn is the concentration with n% toxicity to the cells.